Results of single-concentration screens

The values are deposited in ChEMBL (CHEMBL3988442, “University of Dundee, Small-Polar-MMV Screening Library” (2021)).

A: 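Growth of Mycobacterium tuberculosis over 3 days (7H9 medium with glucose and tyloxapol); the read-out is not stated. Concentration: 500 µM. The record gives no direction; compounds that gave an IC50 in retests scored well above the rest, so higher reads as more growth inhibition. Of about 18,000 compounds tested this way, about 1,400 (7.9%) reached 50% or more in at least one test.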
B: 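Growth of Mycobacterium tuberculosis over 4 days (cholesterol / DPPC medium with tyloxapol); the read-out is not stated. Concentration: 500 µM. The record gives no direction; compounds that gave an IC50 in retests scored well above the rest, so higher reads as more growth inhibition. Size under these conditions: about 18,000 compounds, about 900 of them at 50% or above in at least one test.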

The filed quantity is “Percent Effect” (%).
The record does not define 0% and 100%; most values in the screen are far below 50% and negative numbers occur (in some assays of this library far below -100).
Many other results are left out here, so strong results are more common than in the screen.
A dash means the value is not listed here; it may have been measured.

With NCC1CCSCC1 the screen gave B: -0.8178%. Cc1cc(C2CCCN2C(=O)[C@@H]2CCCN2)on1 (stereo partly drawn) read A: -7.496%. For Cc1ccn(CC(=O)N(C)CC(F)(F)F)c(=O)c1C#N the result was B: -4.142%. For COC(CNC(=O)c1ccn(C)c(=O)c1)C(C)(C)C (stereo not drawn) the result was A: 19.07%. With Cc1noc(C)c1CCC(=O)NCc1ccon1 the screen gave B: 7.139%. COCCCNC(=O)c1ccc(NC(C)=O)cc1 gave A: 4.07%; B: -14.61%. CCN(CC)C(=O)CN(C)S(=O)(=O)C(C)C(F)(F)F (stereo not drawn) gave A: 10.49%.

CC(C)(NCCCO)c1nccs1 read B: 5.802%. With CN(C)S(=O)(=O)NCCC(C)(C)C(F)(F)F the screen gave A: 16.35%. Result for CN(C)C(=O)c1cc(-c2cccs2)on1 was A: 53.88%; B: 61.09%. Result for CC(C)C1CCCN1CCN (stereo not drawn) was B: 2.767%. For CC1(C)C(C(=O)N2CCC(N)C2)C1(C)C (stereo not drawn) the result was B: -12.65%. With CC(C)(CNC(=O)N1CCC1)c1ccc2c(c1)OCO2 the screen gave B: 15.7%. For Nc1nnc(CCCN2C(=O)c3ccccc3C2=O)s1 the result was B: -3.657%.

Cc1ccc2[nH]c(C(C)N)nc2c1 (stereo not drawn) gave B: -4.033%. With CCC=C(C)C(=O)N1CCN(C(=O)c2cccs2)CC1 the screen gave A: 37.72%. With CCOCC(O)CSc1nccn1-c1cccc(F)c1 (stereo not drawn) the screen gave A: 66.17%; B: 59.79%. Cc1noc(C2COCCN2Cc2cncs2)n1 (stereo not drawn) read B: 1.193%. With COCCN(CCN)C(=O)OC(C)(C)C the screen gave A: 12.23%. CC1CNC2=CC=CNC2=N1 (stereo not drawn) gave B: -3.043%. Cc1ccc(NC(=O)CN2CCCC2)cc1 gave B: 36.09%.

O=S1(=O)CCCN1CCNc1ncc(Cl)cc1Cl read A: 61.54%. Result for Cc1ccc(CNC(CN2CCOCC2)C(C)C)nc1 (stereo not drawn) was B: 8.155%. CC(C)c1nsc(NCC(O)CN2CCOCC2)n1 (stereo not drawn) gave A: 0.4061%. With OCc1cc(CNc2ncccn2)ccc1F the screen gave A: 13.25%. With C=C(C)COC(=O)c1ccc(-n2cncn2)cc1C the screen gave A: 53.45%. With CC(C)CC1CCN(C(=O)CCn2cnnn2)C1 (stereo not drawn) the screen gave A: 70.8%; B: 76.27%. COC(=O)c1ccc(OCC(=O)N2CCOCC2)cc1 read B: 26.84%.

Cc1ccc(CCN2CCN(S(N)(=O)=O)CC2)cc1 gave A: 8.263%; B: 4.038%. With COCC(C)CNc1cccc(S(=O)(=O)N(C)C)c1 (stereo not drawn) the screen gave A: -3.649%.

The first 3 entries again:

| SMILES | A | B |
|---|---|---|
| `NCC1CCSCC1` | - | -0.8178 |
| `Cc1cc(C2CCCN2C(=O)[C@@H]2CCCN2)on1` (stereo partly drawn) | -7.496 | - |
| `Cc1ccn(CC(=O)N(C)CC(F)(F)F)c(=O)c1C#N` | - | -4.142 |